Which two values form the index is not stated here.
Tested on: HIV-1IIIB
Experiment: Syncytium inhibition experiment, C8166 cells infected with HIV-1IIIB
Type: cell-based
Settings: selectivity index, HIV-1IIIB in C8166 cells
Description: The specific method was described below.
Syncytium inhibition experiment: 100 μL of C8166 cell suspension (4×10^5/mL) was inoculated into each well of a 96-well cell culture plate containing 5-fold serial dilutions of the compounds, followed by addition of HIV-1IIIB diluted supernatant (MOI=0.04). Three replicate wells were set for each serial concentration. […] The cells were incubated at 37° C. in a 5% CO2 incubator for three days. The number of the syncytia was counted in five non-overlapping fields of view by using an inverted microscope (100×). […] Calculation formula: cytopathic inhibition rate (%)=(1−number of syncytia in experimental wells/number of syncytia in control well)×100%.

| Structure (SMILES) | SI |
| --- | --- |
| CCc1c(CC2CCCCC2)nc(SCC(=O)c2ccc(OC(=O)C(N)CCCCN)cc2)[nH]c1=O (stereo not shown) [Compound I-9] | 19235 |
| Cc1c(CC2CCCCC2)nc(SCC(=O)c2ccc(OC(=O)C(N)Cc3ccccc3)cc2)[nH]c1=O (stereo not shown) [Compound I-22] | 9217.3 |
| CCc1c(CC2CCCCC2)nc(SCC(=O)c2ccc(OC(=O)CN)cc2)[nH]c1=O [Compound I-1] | 33686 |
| CCc1c(CC2CCCCC2)nc(SCC(=O)c2ccc(OC(=O)C(N)CCC(N)=O)cc2)[nH]c1=O (stereo not shown) [Compound I-11] | 23787 |
| CCc1c(CC2CCCCC2)nc(SCC(=O)c2ccc(OC(=O)C(N)Cc3ccccc3)cc2)[nH]c1=O (stereo not shown) [Compound I-7] | 11002 |
| CCc1c(CC2CCCCC2)nc(SCC(=O)c2ccc(OC(=O)C(N)Cc3cnc[nH]3)cc2)[nH]c1=O (stereo not shown) [Compound I-10] | 15445 |
| CC(C)c1c(CC2CCCCC2)nc(SCC(=O)c2ccc(OC(=O)C(N)Cc3c[nH]c4ccccc34)cc2)[nH]c1=O (stereo not shown) [Compound I-16] | 31257 |
| CCc1c(CC2CCCCC2)nc(SCC(=O)c2ccc(OC(=O)C(N)Cc3c[nH]c4ccccc34)cc2)[nH]c1=O (stereo not shown) [Compound I-5] | 23911 |
| CSCCC(N)C(=O)Oc1ccc(C(=O)CSc2nc(CC3CCCCC3)c(C)c(=O)[nH]2)cc1 (stereo not shown) [Compound I-24] | 19616 |
| Cc1c(CC2CCCCC2)nc(SCC(=O)c2ccc(OC(=O)CN)cc2)[nH]c1=O [Compound I-23] | >12656 |
| CCc1c(CC2CCCCC2)nc(SCC(=O)c2ccc(OC(=O)C(N)CC(N)=O)cc2)[nH]c1=O (stereo not shown) [Compound I-12] | 30183 |
| CCc1c(CC2CCCCC2)nc(SCC(=O)c2ccc(OC(=O)C3CCCN3)cc2)[nH]c1=O (stereo not shown) [Compound I-4] | 9233 |
| Cc1ccnc2c1NC(=O)c1cccnc1N2C1CC1 [NVP, Nevirapine, reference compound] | 38777 |
| CCc1c(CC2CCCCC2)nc(SCC(=O)c2ccc(OC(=O)C(N)CCSC)cc2)[nH]c1=O (stereo not shown) [Compound I-8] | 30582 |
| CC(C)c1c(CC2CCCCC2)nc(SCC(=O)c2ccc(OC(=O)C(N)Cc3ccccc3)cc2)[nH]c1=O (stereo not shown) [Compound I-21] | 31050 |
| CC(C)c1c(CC2CCCCC2)nc(SCC(=O)c2ccc(OC(=O)C3CCCN3)cc2)[nH]c1=O (stereo not shown) [Compound I-15] | 7963.9 |
| CCc1c(CC2CCCCC2)nc(SCC(=O)c2ccc(OC(=O)[C@@H](C)N)cc2)[nH]c1=O [Compound I-6] | 25390 |
| CC(C)c1c(CC2CCCCC2)nc(SCC(=O)c2ccc(OC(=O)C(N)C(C)C)cc2)[nH]c1=O (stereo not shown) [Compound I-19] | 37677 |
| CCc1c(CC2CCCCC2)nc(SCC(=O)c2ccc(OC(=O)[C@H](N)[C@H](C)CC)cc2)[nH]c1=O [Compound I-3] | 31375 |

Source: patent publication US11420959B2, “DACOS type NNRTIS amino acid ester derivative, preparation method thereof, pharmaceutical composition, and application thereof” (YUNNAN UNIVERSITY, priority 2018, dated 2022)
